The structures appear in SMILES notation.

The chains behind the UniProt entries cited, without tags or fusion partners. Residues count along the entry.
UniProt P0C6X1, 2966-3267 limits assumed: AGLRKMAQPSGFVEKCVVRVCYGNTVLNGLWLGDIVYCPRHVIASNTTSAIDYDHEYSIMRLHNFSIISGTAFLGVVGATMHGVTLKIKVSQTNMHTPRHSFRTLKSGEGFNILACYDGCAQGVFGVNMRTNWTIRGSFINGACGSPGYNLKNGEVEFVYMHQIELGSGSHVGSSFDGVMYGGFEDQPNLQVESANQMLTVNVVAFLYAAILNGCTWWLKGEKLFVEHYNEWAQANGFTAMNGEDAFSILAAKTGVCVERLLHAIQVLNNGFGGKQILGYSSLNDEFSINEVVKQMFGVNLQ

From patent US20220380347A1 come the findings set out here.

The target in assay [1] is COVID-19 (nCoV-2019, SARS-CoV2) Mpro (Severe acute respiratory syndrome coronavirus 2, UniProt P0DTD1). Nature of the assay: COVID-19. Particulars: read-out: COVID-19 Mpro IC50; 25 nM Mpro, 25 μM substrate. The assay is classed as biochemical.
Another assay has as its target 229E Mpro (Human coronavirus 229E, UniProt P0C6X1). Nature of the assay: 229E Mpro enzymatic assay. The settings on record: read-out: 229E Mpro EC50.
The test system of the next assay is HCoV 229E. The assay is described as follows: HCoV 229E cytopathic effect. The settings on record: read-out: 229E CPE EC50; protection of virus-induced CPE. The assay is classed as cell-based, human coronavirus (HCov) 229E. A general note: Damage to the host cells serves as the signal in cytopathic effect assays.
In another assay the test system is HCov OC43. The assay is described as follows: HCoV OC43 cytopathic effect. The settings on record: read-out: OC43 IC50 (uM) MEDIAN.

With `CC(C)(C)c1ccc(N(C(=O)[C@@]2(C)CCCN2)C(C(=O)NC2CCCCC2)c2cccnc2)cc1` (single isomer, unassigned), the IC50 in assay [1] is greater than 30 µM. The EC50 at 229E Mpro was greater than 30 µM.
In the case of `CC(C)(C)c1ccc(N(C(=O)[C@H]2COCCN2)C(C(=O)NC2CCCCC2)c2cccnc2)cc1` (single isomer, unassigned), the IC50 in assay [1] was greater than 30 µM. Moreover, the EC50 at 229E Mpro was greater than 30 µM.
Take `CC(C)(C)c1ccc(N(C(=O)[C@H]2C[C@@H](O)CN2)C(C(=O)NC2CCCCC2)c2cccnc2)cc1` (single isomer, unassigned): in assay [1], the IC50 was greater than 30 µM. For the same molecule, the EC50 at 229E Mpro is greater than 30 µM.
In the case of `CC(C)(C)c1ccc(N(C(=O)[C@H]2C[C@@H](O)CN2C#N)C(C(=O)NC2CCCCC2)c2cncc(F)c2)cc1` (single isomer, unassigned), the IC50 in assay [1] was less than 2 µM. For the same molecule, the EC50 in the assay on HCoV 229E was less than 2000 nM; on 229E Mpro, less than 2 µM.
Regarding `CC(C)(C)c1ccc(N(C(=O)[C@H]2C[C@H](O)CN2)C(C(=O)NC2CCCCC2)c2cccnc2)cc1` (single isomer, unassigned), the IC50 in assay [1] was greater than 30 µM. In addition, the EC50 at 229E Mpro is greater than 30 µM.
`CC(C)(C)c1ccc(N(C(=O)[C@H]2Cc3ccccc3CN2)C(C(=O)NC2CCCCC2)c2cccnc2)cc1` (single isomer, unassigned): the IC50 (in the assay with HCov OC43; in assay [1]) was greater than 30 µM in each case. For the same molecule, on 229E Mpro, the EC50 was greater than 30 µM.
On to `CC1(C)CN[C@@H](C(=O)N(c2ccc(C(C)(C)C)cc2)C(C(=O)NC2CCCCC2)c2cccnc2)CO1` (single isomer, unassigned), for which the IC50 in assay [1] is greater than 30 µM. The EC50 at 229E Mpro was greater than 30 µM.
Regarding `COc1ccncc1C(C(=O)NC1CCC(F)(F)CC1)N(C(=O)[C@H]1C[C@@](C)(O)CN1C#N)c1ccc(S(F)(F)(F)(F)F)cc1` (single isomer, unassigned), the IC50 (in the assay with HCov OC43; in assay [1]) was less than 2 µM throughout. Also, the EC50 at 229E Mpro is less than 2 µM.
As to `C[C@@]1(O)C[C@H](C(=O)N(c2ccc(S(F)(F)(F)(F)F)cc2)C(C(=O)NC2CCC(F)(F)CC2)c2cncnc2)N(C#N)C1` (single isomer, unassigned), the half-maximal inhibitory concentration (IC50) (in the assay with HCov OC43; in assay [1]) was less than 2 µM in each case. For the same molecule, the EC50 at 229E Mpro is less than 2 µM.
For `C[C@H](C(=O)N(c1ccc(C(C)(C)C)cc1)C(C(=O)NC1CCCCC1)c1cccnc1)N(C)C#N` (single isomer, unassigned), the IC50 (in the assay with HCov OC43; in assay [1]) was greater than 30 µM each time. The EC50 on 229E Mpro was greater than 30 µM.

In general, IC50 refers to the concentration needed to halve the response being measured. As usually defined, the EC50 is the midpoint of the concentration-response curve.
